## Share of PSTVd loop 15 variants by leaf site

The pool varies loop 15 of the PSTVd intermediate strain in the pattern GGAAACCGNNNNNNC; wild type is GGAAACCGCUACUAC (upper and lower strand joined, each 5' to 3', the first 7 letters being the upper strand, closing pairs included).

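Three N. benthamiana plants were inoculated with the whole mutant pool. Progeny were sequenced from the inoculated region (day 5), the margin of the inoculated leaf (day 10) and systemic leaves (day 12).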

Numbers give reads per thousand; 0 = not seen among the reads, higher = more abundant. Each value is the mean of three plants. "Pool" is the share in the plasmid pool used as inoculum, on the same scale. The inoculated region was read from the minus strand, the other sites from the plus strand. IR is the inoculated region, LM the leaf margin, Sys the systemic leaves.

GGAAACCGGCGGAAC (pool 0.208): IR 0.102; LM 0.00539; Sys 0.
GGAAACCGCCUAGCC (pool 0.224): IR 0.0896; LM 0.00742; Sys 0.00537.
GGAAACCGCAGUGAC (pool 0.320): IR 0.0877; LM 0.00668; Sys 0.
GGAAACCGUCGGGGC (pool 0.160): IR 0.120; LM 0.0208; Sys 0.
GGAAACCGACGAGGC (pool 0.336): IR 0.0836; LM 0.00668; Sys 0.
GGAAACCGCAGAUGC (pool 0.240): IR 0.161; LM 0.00539; Sys 0.0104.
GGAAACCGCUUAGCC (pool 0.192): IR 0.155; LM 0.0128; Sys 0.0107.
GGAAACCGAGUGCCC (pool 0.224): IR 0.363; LM 0.00668; Sys 0.
GGAAACCGACGCAUC (pool 0.240): IR 0.0965; LM 0; Sys 0.00537.
GGAAACCGCGUCACC (pool 0.176): IR 0.121; LM 0.0175; Sys 0.
GGAAACCGUUCCAAC (pool 0.256): IR 0.287; LM 0.0941; Sys 0.00537.
GGAAACCGGAGCUGC (pool 0.256): IR 0.107; LM 0; Sys 0.
GGAAACCGGGCCACC (pool 0.224): IR 0.0876; LM 0.00668; Sys 0.
GGAAACCGAUGGGCC (pool 0.160): IR 0.114; LM 0.0134; Sys 0.
GGAAACCGACGAAGC (pool 0.144): IR 0.0728; LM 0.00539; Sys 0.
GGAAACCGGUAUGAC (pool 0.192): IR 0.122; LM 0.0134; Sys 0.
GGAAACCGCAGCGCC (pool 0.288): IR 0.0774; LM 0.00668; Sys 0.
GGAAACCGGCACAGC (pool 0.192): IR 0.0596; LM 0.00668; Sys 0.
GGAAACCGCGCUGUC (pool 0.160): IR 0.113; LM 0.0108; Sys 0.00537.
GGAAACCGUCGGAGC (pool 0.288): IR 0.0841; LM 0.0148; Sys 0.
GGAAACCGGACAUCC (pool 0.208): IR 0.0704; LM 0.0228; Sys 0.00537.
GGAAACCGCCGCUUC (pool 0.208): IR 0.371; LM 0.122; Sys 0.0161.
GGAAACCGAUGGAGC (pool 0.272): IR 0.0803; LM 0.0175; Sys 0.
GGAAACCGUCGAUUC (pool 0.160): IR 0.265; LM 0.116; Sys 0.0161.
GGAAACCGCAAGAAC (pool 0.208): IR 0.278; LM 0.115; Sys 0.0461.
GGAAACCGCAUCAAC (pool 0.176): IR 0.0732; LM 0.00539; Sys 0.
GGAAACCGUCCAGUC (pool 0.240): IR 0.0992; LM 0.0134; Sys 0.
GGAAACCGCUGCGUC (pool 0.176): IR 0.109; LM 0.0208; Sys 0.
GGAAACCGUAAUAUC (pool 0.272): IR 0.281; LM 0.121; Sys 0.0489.
GGAAACCGUAAUUCC (pool 0.0800): IR 0.344; LM 0.0885; Sys 0.0820.
GGAAACCGUUCGUAC (pool 0.304): IR 0.322; LM 0.121; Sys 0.00537.

With 43,870-66,106 reads a sample, very low values are single reads. The authors trace changes outside the varied positions to PCR and sequencing errors or to mutation in the plant; presence does not show that a variant is infectious alone. For reference, wild type rose from 33.9 per thousand in the pool to 202, 200, 159 (inoculated region), 724, 746, 710 (leaf margin) and 856, 883, 880 (systemic leaves).

Values reported by Wu et al. 2024 (doi:10.1371/journal.ppat.1012142).